Here are results for 83 molecules from US20250325672A1 (priority 2020, published 2025).

The first assay addresses Biotinylated 2019-nCoV (COVID-19) S1 protein (16-685), His, Avitag (SARS-CoV-2), P0DTC2. As to the kind of experiment: SPR, Biacore T200, geomean.
Settings: not given
(Surface plasmon resonance follows binding to a sensor surface in real time, without labels.)
The term Kd denotes the constant that tells how readily two partners part at equilibrium. As for ACDWTCYLRIHEACA (modifications not checked) [BCY16942], the equilibrium dissociation constant (Kd) amounted to 92 nM.
On the same count and under the same terms, to CIPLDWTCMIACK (modifications not checked) [BCY18654] belongs 1280 nM.
On the same count and under the same terms, to ACMNPFFYDCERTCA (modifications not checked) [BCY16207] belongs 8300 nM.
The same measure, in the same setting: the value for ACPDETWVYCSTCA (modifications not checked) [BCY17541] was 245 nM.
ACDWTCYMDYLSNCA (modifications not checked) [BCY16941] showed a dissociation constant (Kd) of 83.9 nM.
Regarding ACTSYLCWYLQRTDSCA (modifications not checked) [BCY16889], the Kd is 44.8 nM.
The same measure, in the same setting: the value for ACDWTCYMSMKPCA (modifications not checked) [BCY16930] was 59.1 nM.
Same read-out and setting: the value for ACRSLMCWYLNQTDSCA (modifications not checked) [BCY16895] was 43.7 nM; that for ACDWTCYISPMFDCA (modifications not checked) [BCY16940] was 207 nM.
Still for that read-out and setting: the value for ACDWTCYLNIYHECA (modifications not checked) [BCY15445] was 482 nM; that for CVNKHNPVCRFYC (modifications not checked) [BCY16911] was 12.6 nM.
On to ACIPLDWTCMIACA (modifications not checked) [BCY15446], for which the Kd was determined as 1060 nM.
Still for that read-out and setting: the value for ACEYVGPMCYRLYCA (modifications not checked) [BCY17548] was 1610 nM; that for ACDWTCYINIYNTCA (modifications not checked) [BCY16948] was 9.79 nM.
Still for that read-out and setting: to ACEYNGPYCYRLYCA (modifications not checked) [BCY17547] belongs 933 nM.
In the case of ACSDLMCWYLQRTDSCA (modifications not checked) [BCY16886], the equilibrium dissociation constant (Kd) was found to be 154 nM.
Molecule ACDWTCYLRPLPCA (modifications not checked) [BCY16927] showed a Kd of 18.8 nM.
In the case of CMNPFFYDCERTC (modifications not checked) [BCY18698], the dissociation constant Kd turned out to be 8900 nM.
On the same count and under the same terms, the value for ACESNDWVYCSTCA (modifications not checked) [BCY17542] was 574 nM; that for ACDWTCYLTMMPCA (modifications not checked) [BCY15444] was 2180 nM; that for ACPDVSWIYCSTCA (modifications not checked) [BCY17544] was 350 nM.
On the same count and under the same terms, the value for ACNSYMCWYLQRTDSCA (modifications not checked) [BCY16887] was 95.3 nM; that for ACLDETWIYCSTCA (modifications not checked) [BCY17540] was 1810 nM; that for ACNRPTSVYCLQRGICA (modifications not checked) [BCY17359] was 2250 nM.
Still for that read-out and setting: the value for ACDWTCYMRINDACA (modifications not checked) [BCY16946] was 78.1 nM.

For the next assay, the target named is Biotinylated 2019-nCoV (COVID-19) S1 protein (16-685), His, Avitag (Severe acute respiratory syndrome coronavirus 2, UniProt P0DTC2).
Test: not given
It is filed as binding, SARS-COV-2. Conditions: read-out: Geomean Average KD.
Turning to Ac-(SEQ ID NO: 22) [BCY15576], the dissociation constant Kd was 89.9 nM.
On the same count and under the same terms, to Ac-(SEQ ID NO: 93) [BCY16903] belongs 11.1 nM; to Ac-(SEQ ID NO: 94) [BCY16905], 10 nM; to Ac-(SEQ ID NO: 97) [BCY16913], 15.5 nM.
The same measure, in the same setting: the value for Ac-(SEQ ID NO: 99) [BCY16917] was 10.7 nM; that for Ac-(SEQ ID NO: 100) [BCY16918] was 11.3 nM; that for Ac-(SEQ ID NO: 101) [BCY16921] was 14 nM.
The same measure, in the same setting: to Ac-(SEQ ID NO: 102) [BCY16912] belongs 19 nM; to Ac-(SEQ ID NO: 103) [BCY16914], 16.5 nM.
Regarding Ac-(SEQ ID NO: 104) [BCY16916], the Kd worked out at 17.9 nM.
On the same count and under the same terms, the value for Ac-(SEQ ID NO: 105) [BCY16919] was 20.8 nM; that for Ac-(SEQ ID NO: 106) [BCY16920] was 20.3 nM; that for Ac-(SEQ ID NO: 107) [BCY16902] was 24 nM.
On the same count and under the same terms, the value for Ac-(SEQ ID NO: 108) [BCY16904] was 58.2 nM; that for Ac-(SEQ ID NO: 109) [BCY16907] was 34.4 nM; that for Ac-(SEQ ID NO: 110) [BCY16908] was 33.9 nM.
Still for that read-out and setting: to Ac-(SEQ ID NO: 111) [BCY16909] belongs 26.3 nM; to Ac-(SEQ ID NO: 159) [BCY18341], 66.7 nM.
On to Ac-(SEQ ID NO: 160) [BCY18342], for which the Kd was determined as 31.3 nM.
As to Ac-(SEQ ID NO: 161) [BCY18343], the Kd is 71.5 nM.
Same read-out and setting: to Ac-(SEQ ID NO: 162) [BCY18344] belongs 12.7 nM; to Ac-(SEQ ID NO: 163) [BCY18345], 34.7 nM.
Still for that read-out and setting: the value for Ac-(SEQ ID NO: 164) [BCY18346] was 20.6 nM; that for Ac-(SEQ ID NO: 165) [BCY18347] was 50.3 nM.
The same measure, in the same setting: to Ac-(SEQ ID NO: 168)-[K(PYA)] [BCY18025] belongs 898 nM.
Turning to Ac-(SEQ ID NO: 169) [BCY18026], the dissociation constant (Kd) is 1160 nM.
Still for that read-out and setting: to Ac-(SEQ ID NO: 170)-[K(PYA)] [BCY18027] belongs 1660 nM; to Ac-(SEQ ID NO: 171)-[K(PYA)] [BCY18040], 2220 nM; to Ac-(SEQ ID NO: 172) [BCY18087], 1220 nM.
Same read-out and setting: the value for Ac-(SEQ ID NO: 173) [BCY18088] was 793 nM; that for Ac-(SEQ ID NO: 174)-[K(PYA)] [BCY18109] was 945 nM.
Same read-out and setting: to Ac-(SEQ ID NO: 175) [BCY18110] belongs 829 nM; to Ac-(SEQ ID NO: 176)-[K(PYA)] [BCY18115], 224 nM.
In the case of Ac-(SEQ ID NO: 177)-[K(PYA)] [BCY18211], the Kd was found to be 813 nM.
Same read-out and setting: to Ac-(SEQ ID NO: 178)-[K(PYA)] [BCY18212] belongs 1060 nM; to Ac-(SEQ ID NO: 179)-[K(PYA)] [BCY18351], 717 nM.
The same measure, in the same setting: the value for Ac-(SEQ ID NO: 180)-[K(PYA)] [BCY18524] was 102 nM; that for Ac-(SEQ ID NO: 181)-[K(PYA)] [BCY18527] was 1720 nM.
Turning to Ac-(SEQ ID NO: 182)-[K(PYA)] [BCY18529], the Kd is 1240 nM.
Same read-out and setting: the value for Ac-(SEQ ID NO: 183)-[K(PYA)] [BCY18661] was 1600 nM.
On the same count and under the same terms, the value for Ac-(SEQ ID NO: 184)-[K(PYA)] [BCY18662] was 2610 nM; that for Ac-(SEQ ID NO: 185) [BCY19305] was 3500 nM; that for Ac-(SEQ ID NO: 186) [BCY19309] was 220 nM.
On the same count and under the same terms, to Ac-(SEQ ID NO: 187)-[K(PYA)] [BCY19378] belongs 70.9 nM; to Ac-(SEQ ID NO: 203)-[K(PYA)] [BCY19599], 44.5 nM.
Take Ac-(SEQ ID NO: 205)-[K(PYA)] [BCY19638]: the dissociation constant (Kd) was 11.9 nM.
Still for that read-out and setting: to Ac-(SEQ ID NO: 206)-[K(PYA)] [BCY19639] belongs 34.4 nM.
On the same count and under the same terms, the value for Ac-(SEQ ID NO: 207)-[K(PYA)] [BCY19640] was 350 nM.
On the same count and under the same terms, to Ac-(SEQ ID NO: 208)-[K(PYA)] [BCY19641] belongs 199 nM; to Ac-(SEQ ID NO: 209)-[K(PYA)] [BCY19654], 384 nM.
With Ac-(SEQ ID NO: 210)-[K(PYA)] [BCY19655], the Kd worked out at 98.5 nM.
Same read-out and setting: the value for Ac-(SEQ ID NO: 211)-[K(PYA)] [BCY19658] was 61 nM.
Turning to Ac-(SEQ ID NO: 212)-[K(PYA)] [BCY19827], the Kd worked out at 0.485 nM.
The same measure, in the same setting: the value for Ac-(SEQ ID NO: 213)-[K(PYA)] [BCY19990] was 66.1 nM.
Still for that read-out and setting: the value for Ac-(SEQ ID NO: 214)-[K(PYA)] [BCY20268] was 0.462 nM.

The next assay concerns the target spike protein S1 of SARS-COV-2 (Severe acute respiratory syndrome coronavirus 2, UniProt P0DTC2).
Test: not given
The assay is classed as binding.
Settings: not given
As a reminder, the pKD is −log10 of the KD, conventionally taken in molar units. Read a low pKD as a high KD. Molecule Ac-(SEQ ID NO: 22) [BCY15576] had a pKD of 6.88.
Ac-(SEQ ID NO: 93) [BCY16903] showed a pKD of 7.92.
The same measure, in the same setting: to Ac-(SEQ ID NO: 94) [BCY16905] belongs 7.98; to Ac-(SEQ ID NO: 97) [BCY16913], 7.77.
As for Ac-(SEQ ID NO: 99) [BCY16917], the pKD is given as 7.96.
The same measure, in the same setting: the value for Ac-(SEQ ID NO: 100) [BCY16918] was 7.94; that for Ac-(SEQ ID NO: 101) [BCY16921] was 7.85.
On the same count and under the same terms, to Ac-(SEQ ID NO: 102) [BCY16912] belongs 7.72; to Ac-(SEQ ID NO: 103) [BCY16914], 7.78.
On the same count and under the same terms, the value for Ac-(SEQ ID NO: 104) [BCY16916] was 7.75; that for Ac-(SEQ ID NO: 105) [BCY16919] was 7.68.
Ac-(SEQ ID NO: 106) [BCY16920] displayed a negative-log KD (pKD) of 7.69.
Ac-(SEQ ID NO: 107) [BCY16902]: the pKD is recorded as 7.62.
The same measure, in the same setting: the value for Ac-(SEQ ID NO: 108) [BCY16904] was 7.24; that for Ac-(SEQ ID NO: 109) [BCY16907] was 7.46.
The same measure, in the same setting: the value for Ac-(SEQ ID NO: 110) [BCY16908] was 7.47; that for Ac-(SEQ ID NO: 111) [BCY16909] was 7.58.

For the next assay, the target named is SARS-CoV-2 protein used in the SPR assay of Example 2 (not named). As to the kind of experiment: SPR.
Settings: not given
As for CMNEANPVCRFYC (modifications not checked) [BCY16919], the pKD amounted to 7.68.
Still for that read-out and setting: the value for CMNEDNPVCRFYC (modifications not checked) [BCY16916] was 7.75; that for CANPDNPVCRFYC (modifications not checked) [BCY16903] was 7.92.
